Compound potency records, mixed from different reports. Data source: NIAID ChemDB in PubChem.

All rows: tests in culture; agent: HIV-1; cells: MT-2; endpoint: EC50

An empty or dashed field is not shown. Rows are shuffled and stem from different studies. ECn: concentration that inhibits the pathogen or its effect by n%.

structure | strain | changes | method | setting | result
COc1ccc(N(C)C(=O)[C@H](Cc2ccccc2)NC(=O)NS(=O)(=O)N[C@H](Cc2ccccc2)C(=O)N(C)c2ccc(OC)cc2)cc1 | NL4-3 | - | luciferase | - | 0.47 µM
CC(C)C1=C2[C@H]3CC[C@@H]4[C@@]5(C)CC[C@H](OC(=O)[C@H]6C[C@@H](C(=O)O)C6(C)C)C(C)(C)[C@@H]5CC[C@@]4(C)[C@]3(C)CC[C@@]2(CC(=O)NCC(C)(C)NC(=O)c2ccc(N3CCOCC3)cc2)CC1=O | 92HT599 | - | p24 / ELISA | - | <1 µM
Cc1ccc(OCCNc2ccc(-c3cnc(C)c([C@H](OC(C)(C)C)C(=O)O)c3N3CCC(C)(C)CC3)nc2)cc1 | NL4-3 | - | luminescence | - | 0.0008 µM
CC(C)C1=C2[C@H]3CC[C@@H]4[C@@]5(C)CC[C@H](OC(=O)[C@H]6C[C@@H](C(=O)O)C6(C)C)C(C)(C)[C@@H]5CC[C@@]4(C)[C@]3(C)CC[C@@]2(CCNCc2cccnc2)CC1=O | 92HT599 | - | p24 / ELISA | - | <1 µM
COCCC(C)Oc1ncc(-c2cnc(C)c([C@H](OC(C)(C)C)C(=O)O)c2N2CCC(C)(C)CC2)cc1F | NL4-3 | - | luminescence | - | 0.0044 µM
Nc1nc(NC2CC2)c2ncn([C@H]3C=C[C@@H](CO)C3)c2n1 | Clinical isolate | D67N/T69N/K70R/A98G/M184V/G190S/T215F/K219Q | recombinant virus assay | - | 0.4488 µM
CN(C(=O)[C@H](Cc1cc(F)cc(F)c1)NC(=O)NS(=O)(=O)N[C@@H](Cc1cc(F)cc(F)c1)C(=O)N(C)c1cccnc1)c1cccnc1 | NL4-3 | - | luciferase | - | 4.14 µM
CC(C)C1=C2[C@H]3CC[C@@H]4[C@@]5(C)CC[C@H](OC(=O)[C@H]6C[C@@H](C(=O)O)C6(C)C)C(C)(C)[C@@H]5CC[C@@]4(C)[C@]3(C)CC[C@@]2(CC(=O)NCc2ccc(N)nc2)CC1=O | 92HT599 | - | p24 / ELISA | - | <1 µM
CC(C)C1=C2C3CCC4[C@@]5(C)CC[C@H](OC(=O)CC(C)(C)C(=O)O)C(C)(C)C5CC[C@@]4(C)[C@]3(C)CC[C@@]2(NC(=O)c2cn[nH]c2)CC1=O | IIIB | - | RT activity | 30% human serum | <0.199 µM
COc1ccc(N(C)C(=O)[C@H](Cc2ccccc2)NC(=O)c2ccccc2-c2ccccc2C(=O)N(C)[C@@H](Cc2ccccc2)C(=O)N(C)c2ccc(OC)cc2)cc1 | NL4-3 | - | luciferase | - | 1.4 µM
CC(C)C1=C2[C@H]3CC[C@@H]4[C@@]5(C)CC[C@H](OC(=O)[C@H]6C[C@@H](C(=O)O)C6(C)C)C(C)(C)[C@@H]5CC[C@@]4(C)[C@]3(C)CC[C@@]2(CC(=O)NCC2(N)CCCCC2)CC1=O | 92HT599 | - | p24 / ELISA | - | <1 µM
CN(C(=O)[C@H](Cc1cc(F)cc(F)c1)NC(=O)NS(=O)(=O)N[C@@H](Cc1cc(F)cc(F)c1)C(=O)N(C)c1ccc2scnc2c1)c1ccc2scnc2c1 | NL4-3 | - | luciferase | - | 0.03 µM
Cc1ncc(-c2ccc(OCCOc3ccc(Cl)cc3F)cn2)c(N2CCC(C)(C)CC2)c1[C@H](OC(C)(C)C)C(=O)O | NL4-3 | - | luminescence | - | 0.0013 µM
CC(C)C1=C2[C@H]3CC[C@@H]4[C@@]5(C)CC[C@H](OC(=O)CC(C)(C)C(=O)O)C(C)(C)[C@@H]5CC[C@@]4(C)[C@]3(C)CC[C@@]2(NC(=O)[C@H]2CCCN2C)CC1=O | IIIB | - | RT activity | 30% human serum | <0.199 µM
CC(C)C1=C2[C@H]3CC[C@@H]4[C@@]5(C)CC[C@H](OC(=O)[C@H]6C[C@@H](C(=O)O)C6(C)C)C(C)(C)[C@@H]5CC[C@@]4(C)[C@]3(C)CC[C@@]2(CCNCC(C)(C)NC(=O)c2ccccn2)CC1=O | 92HT599 | - | p24 / ELISA | - | <1 µM
CC(C)C1=C2C3CCC4[C@@]5(C)CC[C@H](OC(=O)CC(C)(C)C(=O)O)C(C)(C)C5CC[C@@]4(C)[C@]3(C)CC[C@@]2(NC(=O)C2CCCCC2)CC1=O | IIIB | - | RT activity | 30% human serum | <0.199 µM
CC(C)C1=C2[C@H]3CC[C@@H]4[C@@]5(C)CC[C@H](OC(=O)[C@H]6C[C@@H](C(=O)O)C6(C)C)C(C)(C)[C@@H]5CC[C@@]4(C)[C@]3(C)CC[C@@]2([C@@H](O)CNCC(C)(C)NC(=O)c2ccc(Cl)cc2OCCN2CCOCC2)CC1=O | 92HT599 | - | p24 / ELISA | - | <1 µM
CC(=O)N[C@@]12CC[C@]3(C)[C@H](CC[C@@H]4[C@@]5(C)CC[C@H](OC(=O)CC(C)(C)C(=O)O)C(C)(C)[C@@H]5CC[C@]43C)C1=C(C(C)C)C(=O)C2 | IIIB | - | RT activity | 30% human serum | <0.199 µM
C#C[C@@]1(CO)C=C[C@H](n2cc(C)c(=O)[nH]c2=O)O1 | Clinical isolate | K65R/Y181C/G190S | recombinant virus assay | - | 0.0646 µM
Cc1nnc(NC(=O)N[C@@]23CC[C@]4(C)C(CCC5[C@@]6(C)CC[C@H](OC(=O)CC(C)(C)C(=O)O)C(C)(C)C6CC[C@]54C)C2=C(C(C)C)C(=O)C3)s1 | IIIB | - | RT activity | 30% human serum | <0.199 µM
Cc1ncc(-c2ccc(N(C)CCOc3ccc(F)cc3)cn2)c(N2CCC(C)(C)CC2)c1[C@H](OC(C)(C)C)C(=O)O | NL4-3 | - | luminescence | - | 0.0016 µM
Cc1cc(C(=O)N[C@@]23CC[C@]4(C)C(CCC5[C@@]6(C)CC[C@H](OC(=O)CC(C)(C)C(=O)O)C(C)(C)C6CC[C@]54C)C2=C(C(C)C)C(=O)C3)no1 | IIIB | - | RT activity | 30% human serum | <0.199 µM
Cc1ncc(-c2ccc(NCCOc3ccc(F)cc3Cl)cn2)c(N2CCC(C)(C)CC2)c1[C@H](OC(C)(C)C)C(=O)O | NL4-3 | - | luminescence | - | 0.002 µM
CC(C)C1=C2C3CCC4[C@@]5(C)CC[C@H](OC(=O)CC(C)(C)C(=O)O)C(C)(C)C5CC[C@@]4(C)[C@]3(C)CC[C@@]2(NC(=O)OC2CCNCC2)CC1=O | IIIB | - | RT activity | 30% human serum | <0.199 µM
Cc1ncc(-c2ccc(OCC3CCCCCC3)cn2)c(N2CCC(C)(C)CC2)c1[C@H](OC(C)(C)C)C(=O)O | NL4-3 | - | luminescence | - | 0.0023 µM
CC(C)C1=C2C3CCC4[C@@]5(C)CC[C@H](OC(=O)CC(C)(C)C(=O)O)C(C)(C)C5CC[C@@]4(C)[C@]3(C)CC[C@@]2(NC(=O)c2cncs2)CC1=O | IIIB | - | RT activity | 30% human serum | <0.199 µM
CC(C)C1=C2[C@H]3CC[C@@H]4[C@@]5(C)CC[C@H](OC(=O)[C@H]6C[C@@H](C(=O)O)C6(C)C)C(C)(C)[C@@H]5CC[C@@]4(C)[C@]3(C)CC[C@@]2([C@@H](O)CNC(=O)c2ccc(S(C)(=O)=O)cc2)CC1=O | 92HT599 | - | p24 / ELISA | - | <1 µM
CC(C)C1=C2[C@H]3CC[C@@H]4[C@@]5(C)CC[C@H](OC(=O)CC(C)(C)C(=O)O)C(C)(C)[C@@H]5CC[C@@]4(C)[C@]3(C)CC[C@@]2(NC(=O)CCN2CCCCC2)CC1=O | IIIB | - | RT activity | 30% human serum | <0.199 µM
Cc1ccc(N(C)C(=O)[C@H](Cc2cc(F)cc(F)c2)NC(=O)c2ccc(F)c(C(=O)N[C@@H](Cc3cc(F)cc(F)c3)C(=O)N(C)c3ccc(C)nc3)c2)cn1 | NL4-3 | - | luciferase | - | 0.19 µM

4 of the rows above, restated:

structure	strain	changes	method	setting	result
COCCC(C)Oc1ncc(-c2cnc(C)c([C@H](OC(C)(C)C)C(=O)O)c2N2CCC(C)(C)CC2)cc1F	NL4-3	-	luminescence	-	0.0044 µM
CC(C)C1=C2[C@H]3CC[C@@H]4[C@@]5(C)CC[C@H](OC(=O)[C@H]6C[C@@H](C(=O)O)C6(C)C)C(C)(C)[C@@H]5CC[C@@]4(C)[C@]3(C)CC[C@@]2([C@@H](O)CNCC(C)(C)NC(=O)c2ccc(Cl)cc2OCCN2CCOCC2)CC1=O	92HT599	-	p24 / ELISA	-	<1 µM
CC(C)C1=C2C3CCC4[C@@]5(C)CC[C@H](OC(=O)CC(C)(C)C(=O)O)C(C)(C)C5CC[C@@]4(C)[C@]3(C)CC[C@@]2(NC(=O)C2CCCCC2)CC1=O	IIIB	-	RT activity	30% human serum	<0.199 µM
CC(C)C1=C2[C@H]3CC[C@@H]4[C@@]5(C)CC[C@H](OC(=O)[C@H]6C[C@@H](C(=O)O)C6(C)C)C(C)(C)[C@@H]5CC[C@@]4(C)[C@]3(C)CC[C@@]2(CCNCC(C)(C)NC(=O)c2ccccn2)CC1=O	92HT599	-	p24 / ELISA	-	<1 µM